Experimental data taken from article PMC9411558, “Toxicity mechanisms of aflatoxin M1 assisted with molecular docking and the toxicity-limiting role of trans-resveratrol” (Scientific Reports, 2022).

System: DNA
Assay type: binding, mice

COc1cc2c(c3oc(=O)c4c(c13)CCC4=O)C1(O)C=COC1O2 (stereo not shown) [AFM1, Aflatoxin M1]
wavelength after hypsochromic shift of the DNA UV spectrum: approximately 240 nm
